Results on one molecule are retold here after patent publication US8124608B2, “Stable pharmaceutical composition of freeze-dried tetrodotoxin powder” (dated 2012).

The structures appear in SMILES notation.

This assay concerns mice. Briefly: Acetic acid induced writhing in mice (analgesic effect).

Turning to `N=C1NCC2C3OC4(O)OC([C@@H](O)C2(N1)[C@@H]4O)C3(O)CO` (stereo partly shown), the “analgesic effect, times lower than that of tetrodotoxin” value is reported as “approximately 330 times”.
